Pooled drug test results. Numbers come from NIAID ChemDB, via PubChem.

Common to all: target-level tests

Inhibition is in % at the dose shown (toxicity tests: loss of growth or viability). Fold resistance has wild type as its base. ICn is the concentration giving n% inhibition. An empty or dashed field is not shown. Conditions beyond the fields shown may differ between rows. Two numbers with a dash give a range or band.

SMILES	agent	strain	mutations	protein	method	read-out	dose	value
Nc1ccn([C@H]2CC[C@@H](COP(=O)(O)OP(=O)(O)OP(=O)(O)O)O2)c(=O)n1	HIV	-	RT-W88G	Reverse transcriptase	nucleotide incorporation / radiometric	fold resistance	-	3.5
CC1NCCn2c1nc(C(=O)NCc1ccc(F)cc1)c(O)c2=O	HIV-1	-	-	Integrase	ELISA	IC50	-	<10 µM
O=C1c2c(O)c(=O)cc(CCO)n2CCN1Cc1ccc(Cl)c(Cl)c1	HIV-1	-	-	Integrase	ELISA	IC50	-	0.01–0.1 µM
CC(C)NS(=O)(=O)c1ccc(NC(=O)CSc2nnnn2-c2ccc(C(C)(C)C)cc2Cl)c(Cl)c1	HIV-1	-	RT-K103 Y181C	Reverse transcriptase	PicoGreen / fluorescence	IC50	-	<1 µM
Nc1nc2c(ncn2[C@H]2CC[C@@H](COP(=O)(O)OP(=O)(O)OP(=O)(O)O)O2)c(=O)[nH]1	HIV	-	RT-T215Y	Reverse transcriptase	-	fold resistance	-	1.43
CC(C)(C#Cc1ccc(NC(=O)CSc2nnnn2-c2ccc(C(C)(C)C)cc2Cl)c(Cl)c1)OCC(=O)Nc1ccc(/C=C/C(=O)O)cc1	HIV-1	-	RT-K103 Y181C	Reverse transcriptase	PicoGreen / fluorescence	IC50	-	<1 µM
CC[C@@H](C)[C@H](NC(=O)CN(CC1CCCCC1)C(=O)[C@@H](O)[C@H](Cc1ccccc1)NC(=O)[C@H](CC(N)=O)NC(=O)OC(C)(C)C)C(=O)NCC1CCCCC1	HIV-1	-	-	Protease	-	inhibition	1000 µM	14.4%
Cc1cn([C@H]2CC[C@@H](COP(=O)(O)OP(=O)(O)OP(=O)(O)O)O2)c(=O)[nH]c1=O	HIV	-	RT-D67N K70R T215Y K219Q	Reverse transcriptase	nucleotide incorporation / radiometric	IC50	-	0.2 µM
Cc1ccc(Cl)cc1Nc1nc(C(F)(F)F)ccc1C(=O)NN1CCN(c2cccc(Cl)c2)CC1	HIV-1	-	K103N	RNase H	RNase H / absorbance	fold resistance	-	2.3
Cc1nnc(SCC(=O)Nc2ccc(-c3ccc(OCC(=O)O)cc3)cc2Cl)n1-c1ccc(C(C)(C)C)cc1Cl	HIV-1	-	RT-K103 Y181C	Reverse transcriptase	PicoGreen / fluorescence	IC50	-	<1 µM
CC1c2nc(C(=O)NCc3ccc(F)cc3)c(O)c(=O)n2CCN1Cc1cocn1	HIV-1	-	-	Integrase	ELISA	IC50	-	<10 µM
Nc1nc2c(ncn2[C@H]2CC[C@@H](COP(=O)(O)OP(=O)(O)OP(=O)(O)OP(=O)(O)OC[C@@H]3CC[C@H](n4cnc5c(=O)[nH]c(N)nc54)O3)O2)c(=O)[nH]1	HIV	-	RT-W88G	Reverse transcriptase	nucleotide incorporation / radiometric	IC50	-	6 µM
Cc1nc(CN2CCn3c(nc(C(=O)NCc4ccc(F)cc4)c(O)c3=O)C2(C)C)cs1	HIV-1	-	-	Integrase	ELISA	IC50	-	<10 µM
CC[C@@H](C)[C@H](NC(=O)[C@@H]1CCCN1C(=O)[C@@H](O)[C@H](Cc1ccccc1)NC(=O)[C@H](CC(N)=O)NC(=O)c1ccc2ccccc2n1)C(=O)N[C@H](C(N)=O)C(C)C	HIV-1	-	-	Protease	-	inhibition	5 µM	99.2%
CC(C)(C#Cc1ccc(NC(=O)CSc2nnnn2-c2ccc(C(C)(C)C)cc2Cl)c(Cl)c1)OCC(=O)O	HIV-1	-	RT-K103 Y181C	Reverse transcriptase	PicoGreen / fluorescence	IC50	-	<1 µM
Nc1ncnc2c1ccn2[C@H]1C[C@H](F)[C@@H](COP(=O)(O)OP(=O)(O)OP(=O)(O)O)O1	HIV	-	RT-D67N K70R T215Y K219Q	Reverse transcriptase	nucleotide incorporation / radiometric	IC50	-	0.16 µM
CC(C)(C)NC(=O)[C@@H]1CCCN1C(=O)[C@@H](O)[C@H](Cc1ccccc1)NC(=O)[C@H](CS(N)(=O)=O)NC(=O)OC(C)(C)C	HIV-1	-	-	Protease	-	inhibition	5 µM	7.1%
Cc1ccc(-c2c(OCC(=O)Nc3ccc(C#CC(C)(C)C(=O)O)cc3Cl)n[nH]c2C)c(Cl)c1	HIV-1	WT	-	Reverse transcriptase	PicoGreen / fluorescence	IC50	-	<1 µM
CCc1ccccc1-c1cn2ccn(Cc3cccc(Cl)c3)c(=O)c2c(O)c1=O	HIV-1	-	-	Integrase	ELISA	IC50	-	0.01–0.1 µM
CC(C)(O)C#Cc1ccc(NC(=O)CSc2nnnn2-c2cc(Cl)c(C3CC3)cc2Cl)c(Cl)c1	HIV-1	-	RT-K103 Y181C	Reverse transcriptase	PicoGreen / fluorescence	IC50	-	<1 µM
CC(C)(C)NC(=O)[C@@H]1CC2CCCCC2N1C(=O)[C@@H](O)[C@H](Cc1ccccc1)NC(=O)[C@H](CS(C)(=O)=O)NC(=O)COc1cccc2ccccc12	HIV-1	-	-	Protease	-	inhibition	0.05 µM	2.5%
CC(=O)NNC(=O)COC(C)(C)C#Cc1ccc(NC(=O)CSc2nnnn2-c2ccc(C(C)(C)C)cc2Cl)c(Cl)c1	HIV-1	WT	-	Reverse transcriptase	PicoGreen / fluorescence	IC50	-	<1 µM
Cc1cn([C@H]2CC[C@@H](COP(=O)(O)OP(=O)(O)OP(=O)(O)O)O2)c(=O)[nH]c1=O	HIV	-	RT-T215Y	Reverse transcriptase	-	fold resistance	-	9.55
Cc1cn([C@H]2CC[C@@H](COP(=O)(O)OP(=O)(O)OP(=O)(O)OP(=O)(O)OC[C@@H]3CC[C@H](n4cc(C)c(=O)[nH]c4=O)O3)O2)c(=O)[nH]c1=O	HIV	-	RT-K65R	Reverse transcriptase	nucleotide incorporation / radiometric	fold resistance	-	5
CC(C)(C#Cc1ccc(NC(=O)CSc2nnnn2-c2ccc(C3CC3)cc2Cl)c(Cl)c1)NC(=O)c1cc[n+]([O-])cc1	HIV-1	WT	-	Reverse transcriptase	PicoGreen / fluorescence	IC50	-	<1 µM
CC(C)(C)NC(=O)[C@H]1N(C(=O)[C@@H](O)[C@H](Cc2ccccc2)NC(=O)[C@H](CC(N)=O)NC(=O)COc2ccc(-c3ccccc3)cc2)CSC1(C)C	HIV-1	-	-	Protease	-	IC50	-	<0.05 µM
CC(C)(O)C#Cc1ccc(NC(=O)CSc2nnnn2-c2ccc(C(C)(C)C)cc2Cl)c(Cl)c1	HIV-1	-	RT-K103 Y181C	Reverse transcriptase	PicoGreen / fluorescence	IC50	-	<1 µM
CC(C)=CCN1Cc2cccc3[nH]c(=S)n(c23)C[C@@H]1C	HIV	-	RT-K263V	Reverse transcriptase	nucleotide incorporation	fold resistance	-	0.926
CC1(C)c2nc(C(=O)NCc3ccc(F)cc3)c(O)c(=O)n2CCN1S(C)(=O)=O	HIV-1	-	-	Integrase	ELISA	IC50	-	<10 µM
CC(C)(C#Cc1ccc(NC(=O)CSc2nnnn2-c2ccc(C(C)(C)C)cc2Cl)c(Cl)c1)OCC(=O)Nc1cnccn1	HIV-1	WT	-	Reverse transcriptase	PicoGreen / fluorescence	IC50	-	<1 µM
CC(C)(C)NC(=O)[C@H]1N(C(=O)[C@@H](O)[C@H](Cc2ccccc2)NC(=O)[C@H](CSN)NC(=O)COc2cccc3cnccc23)CSC1(C)C	HIV-1	-	-	Protease	-	inhibition	0.05 µM	99.1%
O=C(NCc1ccc(F)cc1)c1nc2n(c(=O)c1O)CCNC21CCOCC1	HIV-1	-	-	Integrase	ELISA	IC50	-	<10 µM
COCC1CN(Cc2ccc(Cl)c(Cl)c2)C(=O)c2c(O)c(=O)ccn21	HIV-1	-	-	Integrase	ELISA	IC50	-	0.01–0.1 µM
CC(C)(C#Cc1ccc(NC(=O)CSc2nnnn2-c2ccc(C3CC3)cc2Cl)c(Cl)c1F)OCCN1CCCC1	HIV-1	-	RT-K103 Y181C	Reverse transcriptase	PicoGreen / fluorescence	IC50	-	<1 µM
CCN1CCn2c(nc(C(=O)NCc3ccc(F)c(C)c3)c(O)c2=O)C(N(C)C(=O)C(=O)N(C)C)C1	HIV-1	-	-	Integrase	ELISA	IC50	-	<10 µM
COc1ccnc2[nH]cc(C(=O)C(=O)N3CCN(C(=O)c4ccccc4)C[C@H]3C)c12	HIV-1	NL4-3	GP120-R350K M475I	gp120	ELISA	fold resistance	-	13
CC(C)(C)c1ccc(CNC(=O)c2cn3c(c(O)c2=O)C(=O)N(Cc2cccc(Cl)c2)CC3)cc1	HIV-1	-	-	Integrase	ELISA	IC50	-	0.01–0.1 µM
CC(C)CNC(=O)[C@H](Cc1ccccc1)NC(=O)[C@H](O)[C@H](Cc1ccccc1)NC(=O)[C@@H](NC(=O)OCc1ccccc1)C(C)C	HIV-1	-	-	Protease	-	inhibition	5 µM	15.1%
Nc1nc2c(ncn2[C@H]2CO[C@@H](COP(=O)(O)OP(=O)(O)OP(=O)(O)O)O2)c(=O)[nH]1	HIV	-	RT-Q151M	Reverse transcriptase	radiometric	fold resistance	-	5.3
CC(C)(C#Cc1ccc(NC(=O)CSc2nnnn2-c2cc(C(F)(F)F)ccc2Cl)c(Cl)c1F)OCCOc1ccncc1	HIV-1	-	RT-K103 Y181C	Reverse transcriptase	PicoGreen / fluorescence	IC50	-	<1 µM
CS(=O)(=O)Cc1cc(=O)c(O)c2n1CCN(Cc1ccc(Cl)c(Cl)c1)C2=O	HIV-1	-	-	Integrase	ELISA	IC50	-	0.01–0.1 µM
O=C(CSc1nnnn1-c1ccc(C2CC2)cc1Cl)Nc1ccc(C#CCCN2CCNCC2)cc1Cl	HIV-1	-	RT-K103 Y181C	Reverse transcriptase	PicoGreen / fluorescence	IC50	-	<1 µM
CC1(C)c2nc(C(=O)NCc3ccc(F)cc3)c(O)c(=O)n2CCN1Cc1cn[nH]n1	HIV-1	-	-	Integrase	ELISA	IC50	-	<10 µM
CN(C)CC(=O)NC(C)(C)C#Cc1ccc(NC(=O)CSc2nnnn2-c2cc(C(F)(F)F)ccc2Cl)c(Cl)c1F	HIV-1	WT	-	Reverse transcriptase	PicoGreen / fluorescence	IC50	-	<1 µM
CC(C)C(C(=O)Nc1cn2ccn(Cc3cccc(Cl)c3)c(=O)c2c(O)c1=O)C(C)C	HIV-1	-	-	Integrase	ELISA	IC50	-	0.01–0.1 µM
CCOC(=O)c1ccc(NC(=O)Nc2ccc(NC(=O)CSc3nnnn3-c3ccc(C(C)(C)C)cc3Cl)c(Cl)c2)cc1	HIV-1	WT	-	Reverse transcriptase	PicoGreen / fluorescence	IC50	-	<1 µM
CSC[C@H](NC(=O)COc1cccc2ccccc12)C(=O)N[C@@H](Cc1ccccc1)[C@H](O)C(=O)N1CSC(C)(C)[C@H]1C(=O)NC(C)(C)C	HIV-1	-	-	Protease	-	inhibition	0.05 µM	99.3%
O=C1c2c(O)c(=O)c(-c3ncccn3)cn2CCN1Cc1cccc(Cl)c1	HIV-1	-	-	Integrase	ELISA	IC50	-	0.01–0.1 µM
CCCC[C@@H](CN[C@@H](CCC(N)=O)C(=O)N[C@@H](CCCN=C(N)N)C(N)=O)NC(=O)[C@H](CCCC)NC(=O)C(NC(=O)C(NC(C)=O)[C@@H](C)O)[C@@H](C)CC	HIV	-	PR-M46L	Protease	HPLC	IC50	-	>2.17 µM
CC(C)(C)c1ccc(-n2nnnc2SCC(=O)Nc2ccc(NC(=O)c3ccc(O)cc3)cc2Cl)c(Cl)c1	HIV-1	-	RT-K103 Y181C	Reverse transcriptase	PicoGreen / fluorescence	IC50	-	<1 µM
Cc1ccc(Cl)cc1Nc1nc(C(F)(F)F)ccc1C(=O)NN1CCN(c2ccc(F)cc2)CC1	HIV-1	-	-	RNase H	RNase H / absorbance	IC50	-	>100 µM
CC(C)(C)c1ccc(-n2nnnc2SCC(=O)Nc2ccc(OCC(=O)N3CCC(C(=O)O)CC3)cc2Cl)c(Cl)c1	HIV-1	-	RT-K103 Y181C	Reverse transcriptase	PicoGreen / fluorescence	IC50	-	<1 µM
O=C1c2c(O)c(=O)c(-c3nccs3)cn2CCN1CCCCc1ccccc1	HIV-1	-	-	Integrase	ELISA	IC50	-	0.01–0.1 µM
CN1CCn2c(nc(C(=O)NCc3ccc(F)c(Br)c3)c(O)c2=O)C1(C)C	HIV-1	-	-	Integrase	ELISA	IC50	-	<10 µM
Cc1cc(NC(=O)c2ccc(NC(=O)CSc3nnnn3-c3ccc(C(C)(C)C)cc3Cl)c(Cl)c2)ccc1/C=C/C(=O)O	HIV-1	-	RT-K103 Y181C	Reverse transcriptase	PicoGreen / fluorescence	IC50	-	<1 µM
CC(=O)N(C)C1COCCn2c1nc(C(=O)NCc1ccc(F)cc1)c(O)c2=O	HIV-1	-	-	Integrase	ELISA	IC50	-	<10 µM
O=C(CSc1nnnn1-c1ccc(C2CC2)cc1Cl)Nc1ccc(C#CCCN2CCCC2)cc1Cl	HIV-1	WT	-	Reverse transcriptase	PicoGreen / fluorescence	IC50	-	<1 µM

A second listing of 4 rows from above:

SMILES,agent,strain,mutations,protein,method,read-out,dose,value
Cc1cc(NC(=O)c2ccc(NC(=O)CSc3nnnn3-c3ccc(C(C)(C)C)cc3Cl)c(Cl)c2)ccc1/C=C/C(=O)O,HIV-1,-,RT-K103 Y181C,Reverse transcriptase,PicoGreen / fluorescence,IC50,-,<1 µM
CC(C)(C#Cc1ccc(NC(=O)CSc2nnnn2-c2ccc(C(C)(C)C)cc2Cl)c(Cl)c1)OCC(=O)Nc1cnccn1,HIV-1,WT,-,Reverse transcriptase,PicoGreen / fluorescence,IC50,-,<1 µM
CC(C)(C)NC(=O)[C@@H]1CCCN1C(=O)[C@@H](O)[C@H](Cc1ccccc1)NC(=O)[C@H](CS(N)(=O)=O)NC(=O)OC(C)(C)C,HIV-1,-,-,Protease,-,inhibition,5 µM,7.1%
CC(C)(C)c1ccc(CNC(=O)c2cn3c(c(O)c2=O)C(=O)N(Cc2cccc(Cl)c2)CC3)cc1,HIV-1,-,-,Integrase,ELISA,IC50,-,0.01–0.1 µM